# According to patent US20130209515A1, “ANTI-INFECTIVE AND IMMUNOMODULATORY COMPOUNDS” (priority 2005, published 2013):
# Entries after “also recorded” stand apart in the source; their conditions may differ.
# System: P. aeruginosa cultures
# Assay: MS determination of AA analog concentration in bacterial cultures
# Parameters: species or system Pseudomonas aeruginosa
# Details: P. aeruginosa cultures in LB (FIG. 23C)
row,SMILES,depletion of compound from bacterial cultures (catabolic stability)
1,"Nc1cc(Cl)ccc1C(=O)O [4-CABA, 4-chloro-2-aminobenzoic acid]",actively catabolized
2,"Nc1cccc(Cl)c1C(=O)O [6-CABA, 6-chloro-2-aminobenzoic acid]",slowly depleted; also recorded: stable
3,"Nc1cccc(F)c1C(=O)O [6-FABA, 6-fluoro-2-aminobenzoic acid]",actively catabolized
